Measured values taken from paper PMC3828397, “Characterization of PfTrxR inhibitors using antimalarial assays and in silico techniques” (Chemistry Central Journal, 2013).

How the values were obtained:
[1] = test system: P. falciparum chloroquine sensitive (D6, Sierra Leone) strain; assay: In vitro antimalarial assay (SYBR green), D6 strain; type: cell-based, Plasmodium falciparum; details: Selectivity index
[2] = test system: P. falciparum chloroquine resistant (W2, IndoChina) strain; assay: In vitro antimalarial assay (SYBR green), W2 strain; type: cell-based, Plasmodium falciparum; details: Selectivity index

CC1=CC(=O)c2ccccc2C1=O [MD, menadione]
SI D6 [1]: 3.8 | SI W2 [2]: 2.5

The index is printed as in the source, without its formula.
